These results are taken from article PMC6445162, “Effects of NS2B-NS3 protease and furin inhibition on West Nile and Dengue virus replication” (Journal of Enzyme Inhibition and Medicinal Chemistry, 2017).

By UniProt entry, the sequences of proteins in these tests, tags left out. Residues count along the entry.
UniProt P06935, 1424-1463 limits assumed: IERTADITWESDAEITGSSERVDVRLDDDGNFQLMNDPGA
UniProt P06935, 1502-1679 limits assumed: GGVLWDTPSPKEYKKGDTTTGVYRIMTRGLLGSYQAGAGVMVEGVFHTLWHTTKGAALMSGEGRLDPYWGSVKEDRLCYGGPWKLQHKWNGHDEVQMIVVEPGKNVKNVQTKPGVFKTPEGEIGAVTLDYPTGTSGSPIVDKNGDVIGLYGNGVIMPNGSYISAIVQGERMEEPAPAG
UniProt P14340, 1398-1437 limits assumed: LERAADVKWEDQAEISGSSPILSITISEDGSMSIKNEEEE
UniProt P14340, 1476-1653 limits assumed: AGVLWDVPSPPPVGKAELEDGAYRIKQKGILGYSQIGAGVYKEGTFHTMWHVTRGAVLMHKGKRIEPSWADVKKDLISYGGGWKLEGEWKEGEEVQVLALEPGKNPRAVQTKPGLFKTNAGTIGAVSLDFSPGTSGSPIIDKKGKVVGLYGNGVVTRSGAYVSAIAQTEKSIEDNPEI

Molecules are shown by their SMILES. pKi: −log10 of the molar value. Several values for one entry are separate records, joined by “and”; a condition that tells them apart may be missing. Equal entries are not always repeated. Where two headings read alike, the source gives them in different places.

Experiment [1] has as its target T1, WNV NS2B-NS3 protease (West Nile virus, UniProt P06935). To be noted: read-out: Ki (WNV NS2B-NS3 protease); reference compounds available from previous studies; tested form: TFA; cited from earlier work.
In experiment [2] the target is T1, WNV NS2B-NS3 protease. The experiment is described as follows: Enzyme kinetic inhibition of WNV NS2B-NS3 protease construct (Dixon plot). The experiment is classed as biochemical. To be noted: read-out: Ki (μM) (WNV), covalently linked WNV NS2B-NS3 construct, substrate Phac-Leu-Lys-Lys-Arg-AMC, Dixon plots, average of at least two measurements, tested form: TFA. How it is done: (§1) All measurements were performed at room temperature in black flat-bottom 96-well plates (Nunc, Langenselbold, Germany) using microplate readers (Tecan Safire^2, λex = 380 nm and λem = 460 nm, Tecan Group Ltd., Männedorf, Switzerland or Fluoroskan Ascent type 374, λex = 355 nm and λem = 460 nm; Thermo Fisher Scientific, Vantaa, Finland). The assays with the flavivirus protease constructs were performed with 125 μl buffer (100 mM Tris pH 8.5 containing 20% glycerol, 0.01% Triton X-100, and the inhibitor), 50 μl substrate solution, and were started by addition of 25 μl enzyme solution (total assay volume 200 μl).
For measurements with the covalently linked WNV NS2B-NS3 protease construct (∼4 nM in assay) the substrate Phac-Leu-Lys-Lys-Arg-AMC ×3 TFA (50 µM, 100 µM and 200 µM in assay, KM = 47.5 µM) was used, as described previously.
(§2) The DENV serotype 2 NS2B-NS3 protease construct was prepared from an identical clone as described by D’Arcy et al.[26] The purification of the protease was carried out in a buffer with high ion-strength and low pH value, in the absence of glycerol (20 mM Bis-Tris, 500 mM NaCl, pH 6.3), in order to prevent autolysis of the enzyme. Purification was performed by using a 5 ml HisTrapTM FF column (GE Healthcare) and subsequently, a HiLoad 16/60 SuperdexTM 75 column (GE Healthcare). The assays with the DENV-2 NS2B-NS3^pr° (∼39 nM in well) were performed with the substrate Phac-Lys-Arg-Arg-AMC ×3 TFA (125 µM, 62.5 µM and 31.25 µM in assay, KM = 60 µM). All Ki values were obtained from Dixon plots[27] and are the average of at least two measurements. Due to the weak potency of most compounds against the DENV-2 NS2B-NS3 protease construct, only the percentage of inhibition at a constant inhibitor concentration of 100 µM in the presence of 125 µM substrate was determined.

Experiment [3] has as its target DENV serotype 2 NS2B-NS3 protease (Dengue virus type 2, UniProt P14340). The experiment is described as follows: Enzyme kinetic inhibition of DENV-2 NS2B-NS3 protease construct. The experiment is classed as biochemical, Dengue virus serotype 2. To be noted: tested form: TFA; for % Inhib. (DENV): 100 μM inhibitor in the presence of 125 μM substrate. On the procedure:
as §1, §2

Experiment [4] relates to WNV strain New York 99. As to the kind of experiment: WNV plaque assay (virus yield from infected Huh-7 cells, titration on VeroE6). As to conditions: tested form: TFA. The experiment is classed as cell-based, West Nile virus. How it is done: An analogous plaque assay was employed for WNV-infected cells. Huh-7 cells were seeded into 96-well plates and incubated overnight. Cells were infected for 1 h with the WNV strain New York 99 at a MOI of 0.2 PFU/cell. Different concentrations of the compounds, dissolved in culture medium, were added to the cells together with the virus. After 1 h incubation at 37 °C, inocula were removed and cells were covered with fresh medium containing the inhibitors. Production of virus progeny was determined 48 h postinfection by titration of culture supernatants using a plaque assay on VeroE6 cells, Ribavirin was included as a reference compound. The influence of inhibitors on cell viability was determined by using CellTiter-Glo® and CytoTox 96® assays (Promega GmbH, Mannheim, Germany) according to the instructions of the manufacturer.

The test system of experiment [5] is DENV (strain 16681). As to the kind of experiment: DENV plaque assay (virus yield from infected Huh-7 cells, titration on VeroE6). The experiment is classed as cell-based, Dengue virus serotype 2. To be noted: tested form: TFA. On the procedure: Inhibition of DENV propagation was determined by plaque assay as described recently[20]^,[28] with slight modifications. Huh-7 cells were seeded into 96-well plates and incubated overnight. The next day, cells were infected with DENV (strain 16681) at a multiplicity of infection (MOI) of 1 PFU/cell. Given concentrations of the compounds, dissolved in culture medium, were added to the cells together with the virus. After 2 h incubation at 37 °C, inocula were removed and cells were covered with fresh medium containing given concentrations of the inhibitors. Production of virus progeny was determined 48 h postinfection by titration of cell supernatants using a plaque assay on VeroE6 cells. Ribavirin was included as a reference compound.

Where [6] appears, read: 3.1 µM inhibitor, Huh-7 cells, 48 h postinfection.
Where [7] appears, read: 50 µM inhibitor, Huh-7 cells, 48 h postinfection.
Where [8] appears, read: identical concentrations (e.g. 25 µM).

The pKi is the Ki on a negative log10 scale, so that one unit is a factor of ten. Consider `N=C(N)N[C@H]1CC[C@H](CNC(=O)[C@H](CCCCN)NC(=O)[C@H](CCCCN)NC(=O)Cc2ccccc2)CC1`, for which, in experiment [1], the pKi is 5.92.
Turning to `N=C(N)NCc1cccc(C[C@H](NC(=O)[C@H](CCCCN)NC(=O)Cc2ccccc2)C(=O)NC[C@H]2CC[C@H](NC(=N)N)CC2)c1`, the Ki in experiment [2] is 99.4 µM.
For `N=C(N)Nc1ccc(C[C@H](NC(=O)Cc2ccccc2)C(=O)N[C@@H](CCCCN)C(=O)NC[C@H]2CC[C@H](NC(=N)N)CC2)cc1`, in experiment [2], the Ki amounted to 29.8 µM.
`CC(=O)NC(C(=O)N[C@@H](CCCCN)C(=O)N[C@@H](CCCCN)C(=O)N[C@@H](CCCNC(=N)N)C(N)=O)c1ccccc1` (some centres unmarked): in experiment [2] (listed as 40), the Ki came to 4 µM.
In the case of `N=C(N)N[C@H]1CC[C@H](CNC(=O)[C@H](Cc2cccc(CN)c2)NC(=O)[C@H](CCCCN)NC(=O)Cc2ccccc2)CC1`, the Ki in experiment [2] worked out at 134 µM.
Regarding `N=C(N)N[C@H]1CC[C@H](CNC(=O)[C@H](Cc2cccc(CN)c2)NC(=O)[C@H](Cc2cccc(CN)c2)NC(=O)Cc2ccccc2)CC1`, the Ki in experiment [2] is 44.2 µM. Also, in experiment [3], the “% Inhib. (DENV)” value turned out to be 5.5%.
For `N=C(N)NCc1ccc(C[C@H](NC(=O)Cc2ccccc2)C(=O)N[C@@H](Cc2ccc(CNC(=N)N)cc2)C(=O)NC[C@H]2CC[C@H](NC(=N)N)CC2)cc1`, in that order: 85.3 µM and 17.1%.
Regarding `N=C(N)NCc1cccc(C[C@H](NC(=O)Cc2ccccc2)C(=O)N[C@@H](CCCCN)C(=O)NC[C@H]2CC[C@H](NC(=N)N)CC2)c1`, the Ki in experiment [2] came out at 29.6 µM. Also, in experiment [3], the “% Inhib. (DENV)” value is listed as 31.1%.
For `N=C(N)N[C@H]1CC[C@H](CNC(=O)[C@H](Cc2ccc(CN)cc2)NC(=O)[C@H](Cc2ccc(CN)cc2)NC(=O)Cc2ccccc2)CC1`, in that order: 13.6 µM and 10.8%.
In the case of `N=C(N)NCc1ccc(C[C@H](NC(=O)[C@H](CCCCN)NC(=O)Cc2ccccc2)C(=O)NC[C@H]2CC[C@H](NC(=N)N)CC2)cc1`, in experiment [2], the Ki worked out at 75.6 µM.
As to `N=C(N)NCc1cccc(C[C@H](NC(=O)Cc2ccccc2)C(=O)N[C@@H](Cc2cccc(CNC(=N)N)c2)C(=O)NC[C@H]2CC[C@H](NC(=N)N)CC2)c1`, the Ki in experiment [2] amounted to 21.6 µM.
Same read-out and setting: under `N=C(N)N[C@H]1CC[C@H](CNC(=O)[C@H](Cc2ccc(CN)cc2)NC(=O)[C@H](CCCCN)NC(=O)Cc2ccccc2)CC1` stands 28.9 µM; under `N=C(N)N[C@H]1CC[C@H](CNC(=O)[C@H](CCCCN)NC(=O)[C@H](Cc2cccc(CN)c2)NC(=O)Cc2ccccc2)CC1`, 22.2 µM.
For the compound `N=C(N)Nc1ccc(C[C@H](NC(=O)[C@H](CCCCN)NC(=O)Cc2ccccc2)C(=O)NC[C@H]2CC[C@H](NC(=N)N)CC2)cc1`, the Ki in experiment [2] was found to be 18.2 µM. For the same compound, the “% Inhib. (DENV)” value in experiment [3] was determined as 14.7%.
`N=C(N)NCCC[C@H](NC(=O)[C@H](CCCCN)NC(=O)[C@H](CCCCN)NC(=O)C(N)c1ccccc1)C(N)=O` (some centres unmarked): the Ki in experiment [2] (listed as 39) is 4 µM and 3.6 µM.
For `CC(C)(C)[C@H](NC(=O)[C@H](CCCNC(=N)N)NC(=O)Cc1ccc(CNC(=N)N)cc1)C(=O)N[C@@H](CCCNC(=N)N)C(=O)NCc1ccc(C(=N)N)cc1`, the Ki in experiment [2] was found to be 6.45 µM. Also, in experiment [3] (read-out: Ki (μM) (DENV), DENV-2 NS2B-NS3 construct, substrate Phac-Lys-Arg-Arg-AMC, Dixon plots), the Ki was found to be 83.1 µM. Besides, in experiment [4] (setting [6]), the “decrease of WNV virus titers” value stood at 75% and the “reduction of WNV virus titers” value was “less than 10 fold”. For the same compound, the “reduction of the number of infectious WNV particles” value in experiment [4] (setting [7]) was “four orders of magnitude”. For the same compound, the “antiviral effect against WNV compared with ribavirin” value in experiment [4] (setting [8]) is “significantly stronger antiviral effect”. In addition, the “decrease of DENV-2 virus titers” value in experiment [5] (setting [6]) is recorded as 10 fold. Also, the “reduction of DENV-2 virus titers” value in experiment [5] (setting [7]) is “more than 1000 fold”. In addition, the “antiviral effect against DENV-2 compared with ribavirin” value in experiment [5] (setting [8]) is recorded as “significantly stronger antiviral effect”.
